Percent effect of library compounds

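Growth of Mycobacterium tuberculosis over 3 days (7H9 medium with glucose and tyloxapol); the read-out is not stated. Concentration: 50 µM. The record gives no direction; compounds that gave an IC50 in retests scored well above the rest, so higher reads as more growth inhibition. About 69,000 compounds were tested under these conditions; 1.1% (about 760) showed 50% or more at least once.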

Values are the deposited “Percent Effect”, in %.
The controls that fix the scale are not given in the record; negative values are as filed.
The entries come from a sample that favours strong results.
Two or more numbers in one place are separate tests of the same structure; such repeats can differ widely.

compound,percent effect
COc1ccccc1OC1CN(C(=O)c2c(C)nc3ccc(C)cn23)C1,57.77%
COc1cccc(C(=O)Nc2cc(CC(C)C)nn2C)c1,33.49%
O=C(c1csnn1)N1CCc2ccccc21,7.663% and -4.704%
Cc1ccc(-c2nc(CN3CCOC(c4ccccc4)C3)cs2)o1 (configuration not stated),51.2%
CCc1nc2c(NCC3COc4ccccc4C3)ncnc2o1 (configuration not stated),33.42%
CC(=O)N1CCCC(c2ccc(Br)cn2)C1 (configuration not stated),-3.258%
Cc1ccc(N2CCN(C(=O)CCC(F)(F)F)C(C)C2)cc1 (configuration not stated),40.58% and 61.74%
O=C(c1ccc2c(c1)CCC2)N1CCN(c2ccc(Cl)cn2)CC1,10.88%
COc1cccc(Cc2nnc(SC3CCOC3=O)o2)c1 (configuration not stated),-16.53%
Cc1csc(N2CCCN(c3cc(C)nc(C)c3C#N)CC2)n1,55.15%
O=C(NC1CC1)c1ccnc(N2CCOC(c3ccc(Cl)c(Cl)c3)C2)c1 (configuration not stated),54.77%
CCOC(=O)c1c(NC(=O)CN2CCN(C(C)=O)CC2)sc(C)c1C,11.37%
Cc1ccc(NC2CCCN(C3Cc4ccccc4C3)C2)nn1 (configuration not stated),-21.31% and -0.9861%
CN(C)CCNC(=O)c1cnc2c(c1)nc(-c1ccccc1Cl)n2C,19.36%
CCOCCSc1nnc(Cc2ccccc2F)o1,77.31%
COc1cc(OC)cc(-c2noc(CN)n2)c1,-51.02%
Cc1cnc(N2C(=O)CSC2c2ccc(F)cc2)s1 (configuration not stated),54.6% and 19.86%
O=C(NCCO)Nc1ccc(Br)c(F)c1,-8.339% and 0.4025%
Cc1nc(CCN)cc(N2CCC(O)(c3ccccc3)C2)n1 (configuration not stated),25.12%
CN(Cc1nnc(C2CC2)o1)CC1CCCN1c1cccnn1 (configuration not stated),-20.3%
O=C(OCCNc1ncccn1)c1ccc(Br)s1,51.5%
COCC(=O)N1CCCC1c1cccc(Cc2ccccc2F)n1 (configuration not stated),-1.744%
COCCN1CCN(CCS(=O)(=O)C(F)(F)F)CC1C (configuration not stated),-14.29%
CCc1[nH]c2c(CNc3nc(C)cc(NC)n3)cc(C)cc2c1C,84.45% and 72.51%
CC1CCC(O)(CSc2nnnn2C2CC2)CC1 (configuration not stated),50.11%
CC(NC(=O)CN1CCN(c2cccc(Cl)c2)CC1)c1ccco1 (configuration not stated),38.71%
Cc1cc(C(O)CCNC(=O)COc2ccccc2C)c(C)o1 (configuration not stated),2.597% and 18.59%
CNc1nc(C)cc(NCc2cc(C)cc3c(C)c(C)[nH]c23)n1,51.15% and 65.28%
CN1CCN(c2cc(CNC(=O)c3ccsc3)ccn2)CC1,19.78%
NCCc1nc(N(Cc2nccs2)C2CC2)c2ccccc2n1,-22.94%
CC[C@H](C)[C@@H](CO)NC(C)Cc1ccc(C)cc1 (some centres not stated),57.37%
Nc1cc(N2CCCC(COc3ccc(F)cc3)C2)ncn1 (configuration not stated),26.24%
O=C(NCCOc1ncc(Cl)cc1Cl)c1cccnc1,-16.46%
CCN1CCC(CC(=O)NC[C@H]2CCc3ccccc3O2)CC1,6.31% and 7.633%
CNC(=O)CS(=O)(=O)NC1CCC(C)CC1 (configuration not stated),32.81%
O=C(CCc1ccc(Br)cc1)NCc1nnc[nH]1,-4.847% and 5.551%
Cc1nc(CN(C)C2CCN(CCC(=O)N3CCOCC3)C2)no1 (configuration not stated),1.912%
Cc1cc2c(N)nc(=O)n(CC(=O)Nc3ccccc3)c2s1,32.71%
COc1cc(C(=O)NCCc2ccc(OC)c(OC)c2)on1,-0.3902% and 2.002%
COCC(C)NCc1nc(-c2ccc(C)cc2)c(-c2ccccn2)[nH]1 (configuration not stated),30.03%
O=C1CCC2(CCN(Cc3cscn3)CC2)CN1CCCO,62.02%
Br.Cc1ccc(C(=O)CN(C2=NCCCCC2)c2ccccc2)cc1,53.14%
Clc1ccccc1CCN1CCN(c2ccc3nncn3n2)CC1,50.51%
CC(C)(C)C(=O)N1CCC(COCc2ccccc2)C1 (configuration not stated),-1.977%
CCC(CO)NCc1ccc(-c2ccc(Cl)cc2)o1.Cl (configuration not stated),23.68% and 22.45%
CN(CC1COc2ccccc2O1)C(=O)C1=NN(C)C(=O)CC1 (configuration not stated),-5.883% and 18.84%
CC(Nc1cccc(COCc2ccco2)c1)C(=O)NC(N)=O (configuration not stated),11.64%
O=C(Nc1cccnn1)NC(CCCO)c1ccccc1 (configuration not stated),4.339%
COCCNS(=O)(=O)c1cccc2c1CN(C(=O)c1ccccc1)CC2,-16.87% and -14.77%
CN(CC1CCCCO1)c1nc(-c2cccnc2)nc2c1CCNC2 (configuration not stated),1.885%
Cc1ccc(C(CNCc2c[nH]nc2C)N(C)C)cc1.Cl (configuration not stated),6.997% and 2.751%
CCCn1nccc1C(=O)Nc1nc(C)c(C)s1,50.94% and 5.993%
CC(C)Nc1nc(N2CCCC2)nc2c1CN(c1ncc(F)cn1)CC2,35.26%
CCC(=O)N1CCN(C(=O)CCn2cccn2)CC1,7.324%
NC(=O)CCSc1n[nH]c(-c2ccc3c(c2)CCC3)n1,20.44%
COc1cccc(SCC(=O)N2CCCC(N3CCCC3=O)C2)c1 (configuration not stated),27.71%
CN(CCn1cnc(-c2ccccc2)c1-c1ncc[nH]1)S(C)(=O)=O,-8.969% and -3.022%

Repeated from the top, 5 entries:

* COc1ccccc1OC1CN(C(=O)c2c(C)nc3ccc(C)cn23)C1 | 57.77%
* COc1cccc(C(=O)Nc2cc(CC(C)C)nn2C)c1 | 33.49%
* O=C(c1csnn1)N1CCc2ccccc21 | 7.663% and -4.704%
* Cc1ccc(-c2nc(CN3CCOC(c4ccccc4)C3)cs2)o1 (configuration not stated) | 51.2%
* CCc1nc2c(NCC3COc4ccccc4C3)ncnc2o1 (configuration not stated) | 33.42%

Source: ChEMBL document CHEMBL3988442, “University of Dundee, Small-Polar-MMV Screening Library” (2021).